Compound potency records, mixed from different reports. Data source: NIAID ChemDB in PubChem.

Shared fields: tests on isolated targets; organism: HIV-1; protein: Reverse transcriptase

An empty or dashed field is not shown. Fold resistance: result on the changed form divided by that on wild type. Percent inhibition refers to the dose given; in toxicity tests it is the harm to the cells. ICn: concentration for n% inhibition. Neighbouring rows are from separate reports.

smiles,strain,changes,method,measure,dose,result
Cc1cn([C@H]2C=C[C@@H](COP(=O)(O)OP(=O)(O)OP(=O)(O)O)O2)c(=O)[nH]c1=O,-,RT-Q161L H208Y,-,Ki,-,0.039 µM
CCN1c2ncc(CCc3ccccc3)cc2C(=O)Nc2c1nc(Cl)c(Br)c2C,WT,-,nucleotide incorporation / radiometric,IC50,-,>1 µM
O=c1c2cccn2ccn1CCNC(=S)Nc1ccc(Br)cn1,-,RT-L100I,nucleotide incorporation,Ki,-,0.061 µM
Nc1ncnc2c1ncn2[C@H]1CC[C@@H](COP(=O)(O)OP(=O)(O)OP(=O)(O)O)O1,-,-,nucleotide incorporation / radiometric,Ki,-,0.19 µM
Cc1cn([C@H]2CC[C@@H](COP(=O)(O)OP(=O)(O)OP(=O)(O)O)O2)c(=O)[nH]c1=O,-,RT-T139V,nucleotide incorporation / radiometric,IC50,-,0.1 µM
Nc1ccn([C@@H]2CS[C@H](COP(=O)(O)OP(=O)(O)OP(=O)(O)O)O2)c(=O)n1,-,RT-Q151M,nucleotide incorporation / radiometric,fold resistance,-,1.77
O=C(O)Cn1cnc2c(=O)[nH]c(NC(=O)OCc3ccccc3)nc21,NNRTI-resistant,K103N,nucleotide incorporation / radiometric,Ki,-,38.6 µM
CCN1c2ncc(CCc3cnc4ccccc4c3)cc2C(=O)N(C)c2ccc(F)nc21,WT,-,nucleotide incorporation / radiometric,IC50,-,<1 µM
COc1ccc(/C=C/NC(=O)Nc2ccc(Cl)cn2)cc1OC,-,RT-L100I,nucleotide incorporation,Ki,-,10 µM
CCN1c2ncc(CS(=O)c3ccccc3)cc2C(=O)N(C)c2ccc(Cl)nc21,WT,-,nucleotide incorporation / radiometric,IC50,-,<1 µM
Cc1cn([C@H]2CC[C@@H](COP(=O)(O)OP(=O)(O)OP(=O)(O)O)O2)c(=O)[nH]c1=O,-,RT-Y188L,RT activity,Ki,-,0.02 µM
CCN1c2ncc(O)cc2C(=O)N(C)c2ccc(Cl)nc21,-,RT-Y181C,nucleotide incorporation / radiometric,IC50,-,>1 µM
O=C1c2ccncc2C(=O)N1CCNC(=S)Nc1ccc(Br)cn1,-,RT-L100I,nucleotide incorporation,Ki,-,>5 µM
Cc1cc(S(N)(=O)=O)ccc1NC(=O)COc1ccc(Cl)cc1C(=O)c1cc(Cl)cc(C#N)c1,-,RT-L100I,fluorescence,IC50,-,0.00084 µM
Cc1cn([C@H]2C=C[C@@H](COP(=O)(O)OP(=O)(O)OP(=O)(O)O)O2)c(=O)[nH]c1=O,-,RT-A62V V75I F77L F116Y Q151M,nucleotide incorporation / radiometric,Ki,-,2.8 µM
O=c1c2cccn2c2cc(Cl)c(Cl)cc2n1CCNC(=S)Nc1ccc(Br)cn1,-,RT-V106A,nucleotide incorporation,Ki,-,0.02 µM
CCN1c2ncccc2C=Cc2cccnc21,-,-,nucleotide incorporation,inhibition,1 µM,97%
CCN1c2ncc(COc3ccccc3C(=O)OC)cc2C(=O)N(C)c2ccc(Cl)nc21,-,RT-Y181C,nucleotide incorporation / radiometric,IC50,-,>1 µM
Cc1c(Sc2ccccc2)n(COCCO)c(=O)[nH]c1=O,-,-,-,IC50,-,<0.5 µM
CCN1c2ncc(/C=C\c3ccccc3)cc2C(=O)N(C)c2cccnc21,WT,-,nucleotide incorporation / radiometric,IC50,-,<1 µM
CC(=O)c1ccc(C)cc1NC(C(N)=O)c1c(Cl)cccc1Cl,-,-,-,inhibition,100 µg/mL,86.6%
CCN1c2ncc(C(C)O)cc2C(=O)N(C)c2ccc(Cl)nc21,WT,-,nucleotide incorporation / radiometric,IC50,-,<1 µM
Nc1ccn([C@H]2CC[C@@H](COP(=O)(O)OP(=O)(O)OP(=O)(O)O)O2)c(=O)n1,-,RT-L74V,nucleotide incorporation / radiometric,Ki,-,0.77 µM
O=c1cnc2ccccc2n1CCNC(=S)Nc1ccc(Br)cn1,-,-,nucleotide incorporation,Ki,-,0.2 µM
CCN1c2ncc(COc3ccncc3)cc2C(=O)N(C)c2ccc(F)nc21,-,RT-Y181C,nucleotide incorporation / radiometric,IC50,-,<1 µM

A second listing of 2 rows from above:

| smiles | strain | changes | method | measure | dose | result |
|---|---|---|---|---|---|---|
| O=c1cnc2ccccc2n1CCNC(=S)Nc1ccc(Br)cn1 | - | - | nucleotide incorporation | Ki | - | 0.2 µM |
| CCN1c2ncccc2C=Cc2cccnc21 | - | - | nucleotide incorporation | inhibition | 1 µM | 97% |